Assay results as given in patent publication US7645881B2, “Methods for treating hepatitis C” (PTC Therapeutics, Inc., priority 2004, dated 2010).

What was measured:
HCV replicon = HCV replicon system (bicistronic replicon, Fluc reporter signal); type: cell-based, hepatitis C virus
[1] = test system: HCV-poliovirus (HCV-PV) chimera
[2] = test system: HCV IRES-driven translation; assay: Western blot of Fluc protein in HepGmono-4 cells (HCV IRES-driven translation); details: 20 hours, data not shown

Structure (SMILES)	IC50 [1] [nM]	other results
Cc1nc2sc(C(=O)OC(C)(C)C)c(N)c2c(C)c1OC(=O)N1CCCC1		IC50 (HCV replicon): > 2000 nM
Cc1nc2sc(C(=O)OC(C)(C)C)c(N)c2c(C)c1OC(=O)N1CCOCC1		IC50 (HCV replicon): > 2000 nM
CC(C)(C)OC(=O)c1sc2nc3c(c(-c4cccs4)c2c1N)CCCC3 [Compound 34]	500 to 2000	
CCc1c(C)nc2sc(N)c(C#N)c2c1C [Compound 35, 2-amino-5-ethyl-4,6-dimethylthieno[2,3-b]pyridine-3-carbonitrile]	< 500	
Nc1c(C(=O)Nc2ccc(C(F)(F)F)cc2)sc2nc3c(cc12)CCCCC3 [Compound 29]	500 to 2000	
CN1CCN(C(=O)c2sc3nc4c(c(C(F)(F)F)c3c2N)CCCCC4)CC1 [Compound 5]	500 to 2000	
COc1ccc(C[C@H](N)C(=O)N[C@H]2[C@@H](O)[C@H](n3cnc4c(N(C)C)ncnc43)O[C@@H]2CO)cc1 [puromycin]		HCV IRES-driven protein production (luciferase reporter protein level, Western blot) [2]: inhibited
